Laboratory results: PubChem BioAssay AID1259414 (Drosophila RNAi Screening Center, 2018)
In all, the deposit lists about 24,000 reagents; this is a random part of those that have a named target and a result. Of all reagents, about 1,210 (5%) are marked active. 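Inactive calls also include excluded dsRNAs with several or no targets, genes unexpressed in JW18, and well A1, regardless of score.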 Unmarked entries are inactive. Reagents against one gene are numbered here. Names joined by + are all predicted targets of the reagent. Reagent sequences are not shown.

Purpose: 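Genome-wide screen for host control of endosymbiont load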 (primary screen)
Cell system: Drosophila JW18 cells infected with Wolbachia
Reagent: long dsRNA against Drosophila genes, 0.25 µg dsRNA per well of a 384-well plate
Time to read-out: 5 days
Challenge: cells persistently infected with Wolbachia before knock-down; no added drug
Read-out: 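Imaged fluorescence in situ signal for Wolbachia 23S rRNA per DAPI-counted host cell, given as a robust z-score within each plate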
Reading the numbers: Wolbachia per cell robust z: higher = more Wolbachia per host cell than the plate typical
Active means: 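Hit when robust z is 1.5 or more, or -1.5 or less, in at least two of three replicates; excludes dsRNAs with several or no targets, genes not expressed in JW18 and well A1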

Against CG34277 + CG31542 #1, the values are Wolbachia per cell robust z, rep 1 = 1.54; Wolbachia per cell robust z, rep 2 = -0.102; Wolbachia per cell robust z, rep 3 = 1.52. Knock-down of CG34277 + CG31542 #2 came out at: Wolbachia per cell robust z, rep 1 = -0.54; Wolbachia per cell robust z, rep 2 = 0.891; Wolbachia per cell robust z, rep 3 = -2.28. cta gave Wolbachia per cell robust z, rep 1 = -4.95; Wolbachia per cell robust z, rep 2 = 0.711; Wolbachia per cell robust z, rep 3 = 0.645. Depletion of Sbf #1 resulted in: Wolbachia per cell robust z, rep 1 = -0.514; Wolbachia per cell robust z, rep 2 = -3.45; Wolbachia per cell robust z, rep 3 = -0.818. Sbf #2 scored Wolbachia per cell robust z, rep 1 = 0.682; Wolbachia per cell robust z, rep 2 = -0.697; Wolbachia per cell robust z, rep 3 = 0.0532. For 2mit #1, the entry reads Wolbachia per cell robust z, rep 1 = -3.96; Wolbachia per cell robust z, rep 2 = -0.84; Wolbachia per cell robust z, rep 3 = -1.61.

For 2mit #2, the entry reads Wolbachia per cell robust z, rep 1 = 0.00572; Wolbachia per cell robust z, rep 2 = 0.778; Wolbachia per cell robust z, rep 3 = 0.313. Knock-down of lncRNA:CR33218 gave: Wolbachia per cell robust z, rep 1 = -2.82; Wolbachia per cell robust z, rep 2 = -4.36; Wolbachia per cell robust z, rep 3 = -2.71. Knock-down of CG8736 #1 resulted in: Wolbachia per cell robust z, rep 1 = 0.081; Wolbachia per cell robust z, rep 2 = 0.787; Wolbachia per cell robust z, rep 3 = 1.17. Knock-down of CG8736 #2 resulted in: Wolbachia per cell robust z, rep 1 = -3.93; Wolbachia per cell robust z, rep 2 = 0.956; Wolbachia per cell robust z, rep 3 = 0.815. With knock-down of CG12822 + CG18853 + Atg10, the screen gave Wolbachia per cell robust z, rep 1 = -0.0694; Wolbachia per cell robust z, rep 2 = -1.43; Wolbachia per cell robust z, rep 3 = -1.23.

A portion of the results above:
cta: Wolbachia per cell robust z, rep 1 = -4.95; Wolbachia per cell robust z, rep 2 = 0.711; Wolbachia per cell robust z, rep 3 = 0.645
Sbf #1: Wolbachia per cell robust z, rep 1 = -0.514; Wolbachia per cell robust z, rep 2 = -3.45; Wolbachia per cell robust z, rep 3 = -0.818
Sbf #2: Wolbachia per cell robust z, rep 1 = 0.682; Wolbachia per cell robust z, rep 2 = -0.697; Wolbachia per cell robust z, rep 3 = 0.0532

The list goes on:
Depletion of Ptp52F gave: Wolbachia per cell robust z, rep 1 = 0.598; Wolbachia per cell robust z, rep 2 = -0.205; Wolbachia per cell robust z, rep 3 = -0.442. For AP-2alpha #1, the values are Wolbachia per cell robust z, rep 1 = 3.45; Wolbachia per cell robust z, rep 2 = 0.413; Wolbachia per cell robust z, rep 3 = -5.1. AP-2alpha #2 showed Wolbachia per cell robust z, rep 1 = 1.27; Wolbachia per cell robust z, rep 2 = 1.15; Wolbachia per cell robust z, rep 3 = 1.47. With knock-down of Ccp84Ad #1, the screen gave Wolbachia per cell robust z, rep 1 = -1.95; Wolbachia per cell robust z, rep 2 = -0.928; Wolbachia per cell robust z, rep 3 = 0.514. Knock-down of Ccp84Ad #2 came out at: Wolbachia per cell robust z, rep 1 = -1.17; Wolbachia per cell robust z, rep 2 = -3.04; Wolbachia per cell robust z, rep 3 = -0.509. Silencing of Arp10 #1 gave: Wolbachia per cell robust z, rep 1 = -4.29; Wolbachia per cell robust z, rep 2 = -0.289; Wolbachia per cell robust z, rep 3 = -1.74.

With knock-down of Arp10 #2, the record shows Wolbachia per cell robust z, rep 1 = 0.128; Wolbachia per cell robust z, rep 2 = 1.76; Wolbachia per cell robust z, rep 3 = 0.738. For CG3740, the entry reads Wolbachia per cell robust z, rep 1 = 0.209; Wolbachia per cell robust z, rep 2 = -0.163; Wolbachia per cell robust z, rep 3 = 0.205. Silencing of sinu gave: Wolbachia per cell robust z, rep 1 = 1.06; Wolbachia per cell robust z, rep 2 = 0.859; Wolbachia per cell robust z, rep 3 = 0.837. Ak2 gave Wolbachia per cell robust z, rep 1 = -1.95; Wolbachia per cell robust z, rep 2 = -3.12; Wolbachia per cell robust z, rep 3 = -4.07. Silencing of Cpr65Ax1 + Cpr65Ax2 came out at: Wolbachia per cell robust z, rep 1 = -0.444; Wolbachia per cell robust z, rep 2 = -0.714; Wolbachia per cell robust z, rep 3 = 0.601. With knock-down of dpr12 #1, the screen gave Wolbachia per cell robust z, rep 1 = -0.157; Wolbachia per cell robust z, rep 2 = -0.223; Wolbachia per cell robust z, rep 3 = 0.0843.

dpr12 #2 showed Wolbachia per cell robust z, rep 1 = -0.291; Wolbachia per cell robust z, rep 2 = -7.45; Wolbachia per cell robust z, rep 3 = -2.17.
